From patent US6699656B2, “Treatment and prevention of HIV infection by administration of derivatives of human chorionic gonadotropin” (University of Maryland Biotechnology Institute, priority 1996, dated 2004)
Values joined by “and” are separate entries in the source; they are usually repeats but may differ in a detail not shown here. Equal values may be shown once. “Also recorded” adds a separate entry of the source. Read-outs that look alike come from different tables or passages of the source.

Assays:
[1] = tested on: HIV-1; conditions: for relative effectiveness among commercial hCG preparations in inhibiting HIV infection and replication: rank order
Experimental: Sequences of the peptides are as follows:
HIV-1 infected cells were treated with the above preparations and the virus was measured.

[2] = tested on: HIV-1; conditions: for CD4/mm^3 Rx: post treatment with hCG, (M) = month from enrollment; for Viral Load Rx: post treatment; for cholestasis (adverse event): patient PH-OJ, preexisting cholestasis, higher doses of hCG, required hospitalization
[3] = tested on: HIV-1 transgenic mice; format: in vivo; conditions: for growth retardation and cachexia: branched peptide 10 μg to mothers s.c. daily for 10 days; for HIV-1 gene expression in skin biopsies (RT-PCR): Tg26 mice, hCG (APL) 300-500 I.U. to mothers s.c. twice weekly, pups via milk
[4] = tested on: HIV-1 LTR; test: HIV-1 LTR driven CAT reporter expression in HUT 78; format: cell-based; conditions: 40 hours
[5] = tested on: SIVmac251; test: SIV infected rhesus monkeys treated with hCG preparation; format: in vivo
[6] = tested on: HIV-1; conditions: purified heterodimeric hCG; cited from earlier work
[7] = tested on: HIV; conditions: literature; cited from earlier work
[8] = p24 antigen days 3 to 10, peptides 0.05 to 50 nmoles/ml, hCG 0.01 to 1,000 IU, native β-hCG 100 to 1,000 μg
[9] = RT-PCR (R), one patient per row

CR127: highly purified native hCG heterodimer supplied by the National Hormone and Pituitary Program, NIH [reference compound]
inhibition of HIV-1 infection/replication in acutely infected cells [1, 8]: little or no inhibition | inhibition of HIV-1 infection/replication in acutely infected cells ([1]; p24 antigen days 3 to 10, peptides 0.05 to 50 nmoles/ml, hCG 0.01 to 1,000 IU, native β-hCG 100 to 1,000 μg, listed as highly purified hCG preparation): not to be active

hCG Pregnyl: commercial native hCG preparation, Pregnyl (Organon)
relative effectiveness among commercial hCG preparations in inhibiting HIV infection and replication [1]: followed by | relative effectiveness among commercial hCG preparations in inhibiting HIV infection and replication ([1]; listed as pregnyl): next most effective | Weight gain [2]: +3 kG (2×) and +2 kG (2×) and +1 kG (3×) and −3 (diet) kG and 0 kG (2×) and +1.5 kG (3×) and +6 kG | CD4/mm^3 Rx [2]: 3 (M4) /mm^3 and 35 (M2) /mm^3 and 17 (M3) /mm^3 and <5 (M1) /mm^3 and 505 (M3) /mm^3 and 89 (M2) /mm^3 and 5 (M1) /mm^3 and 202 (M2) /mm^3 and 10 (M4) /mm^3 and 10 (M2) /mm^3 and 72 (M3) /mm^3 and 14 /mm^3 and 12 /mm^3 and 35 (1M) /mm^3 and 160 (M4) /mm^3 and 204 (M20) /mm^3 | Viral Load Rx ([2]; NASBA (N), one patient per row): 150,000N and <4,000N and 300,000 and 11,000 | Viral Load Rx [2, 9]: 2,500R | Viral Load Rx ([2]; TCID (T), patient PH-DP, 1 mo, PreRx 100T): 1T (1 mo)

hCG APL: commercial preparation of native hCG (APL, Wyeth Ayerst)
inhibition of HIV-1 infection/replication in acutely infected cells [1, 8]: dose dependent inhibition | inhibition of HIV-1 infection/replication in acutely infected cells ([1]; p24 antigen days 3 to 10; peptides 0.05 to 50 nmoles/ml, hCG 0.01 to 1,000 IU, native β-hCG 100 to 1,000 μg; Wyeth Ayerst)): active | Weight gain ([2]; listed as APL): −0.9 kG and +1.8 kG (2×) and +1.4 kG and +3.2 kG and +4.5 kG and +2.3 kG (2×) and −5.0 kG and +5.4 kG and +10.0 kG | cholestasis (adverse event) [2]: exacerbation of preexisting cholestasis | CD4/mm^3 Rx ([2]; listed as APL): 170 (M4) /mm^3 and 48 (M4) /mm^3 and 424 (M4) /mm^3 and 21 (M3) /mm^3 and 213 /mm^3 and 678 /mm^3 and 218 /mm^3 and 86 /mm^3 and 361 /mm^3 and 46 /mm^3 and 483 /mm^3 | Viral Load Rx ([2]; Roche Amplicor (A), one patient per row, listed as APL): 1,700A and 40,000A and 55,000A and 98,000A and 22,313A and 6,777A and 200A and 22,510A | growth retardation and cachexia ([3]; HIV-1 transgenic mice): reversal | HIV-1 gene expression in skin biopsies (RT-PCR) [3]: marked down regulation; also recorded: marked decrease | normal transcription from the LTR detected ([4]; 100 IU/ml): 78% | normal transcription from the LTR detected ([4]; 500 IU/ml): 36% | CD4+ T cells ([5]; 3,000 IU 2 times weekly, maintained over 7 months): increase in CD4^+ T cells to normal levels

hCG: human chorionic gonadotropin preparation, brand not stated at the place (or both Pregnyl and APL, 'PA')
reverse transcriptase activity in HIV-1 infected lymphocytes and monocytes in culture [6]: reduce the reverse transcriptase activity | transmission of HIV from lymphocytes to trophoblasts in vitro [6]: prevent transmission of HIV | last viral load measurement, patient PG-18 ([2]; 3673 before hCG, started Crixivan after hCG): 1742 copies | last viral load measurement, patient PG-16 ([2]; 47,931 before hCG, started Ritonavir after hCG): 370 copies | CD4+ T cell levels, patient PH-OJ ([2]; CD4+ T cells below 10 at start): did not experience an increase | decrease in viral load, patient PH-VE ([2]; NASBA): 1.5 log | viral load, patient PH-VE ([2]; NASBA, from 230,000 copies): 11,000 copies | viral load, patient PH-SPBE ([2]; NASBA, from 1,400,000 copies, systemic 25,000 then 40,000-60,000 IU per week, before Ritonavir): 700,000 copies and 770,000 copies | viral load, other patients e.g. PG-3 and PG-15 ([2]; PG-3 on multiple drugs, PG-15 on no other therapy): stable viral load or demonstrated increases in viral load | viral load, patient PH-OJ ([2]; RT-PCR, from 100,000): 2500 copies | last viral load measurement, patient PG2 ([2]; Roche Amplicor, 10,496 before hCG, started Norvir after hCG): 15,542 copies | reduction in viral load, patient PH-DP ([2]; TCID assay, CDC stage B1, no KS, no change in anti-viral therapy): 2 log | CD4+ T cells, patient PH-VE ([2]; at 68 weeks of hCG therapy): 204 mm^3 | CD4+ T cell levels, patient PH-VE ([2]; from 100 mm3, intralesional then subcutaneous injections for 6 weeks): 160 mm^3 | Weight gain ([2]; listed as hCG preparation): +1 kG and 0 kG | toxicity, patient PH-VE ([2]; more than 80 weeks of therapy): without toxicity | rise of CD4+ T cell levels, patient PG-4 ([2]; no other antiviral therapy): 10 fold | CD4+ T cell levels, patient PG-4 ([2]; no other antiviral therapy, from 47 mm^3): 424 mm^3 | CD4+ T cells, patient PH-SPBE ([2]; on hCG before Ritonavir): stabilized in the mid-100 | drop in viral load, patient PG-1 ([2]; on reverse transcriptase inhibitors at enrollment): 1 log | cholestasis (adverse event) [2]: cholestasis was exacerbated | CD4/mm^3 Rx [2]: 174 (M3) /mm^3 | Viral Load Rx ([2]; NASBA (N), one patient per row): 770,000 | Viral Load Rx [2, 9]: 500R | CD4+ T cell levels in the other patients on anti-virals ([2]; systemic hCG trial, including protease inhibitors): stable or increased | viral load, patient PH-JPV ([2]; week 4 of hCG alone, 500,000 (Roche Amplicor) before hCG): 4,900,000 copies | hyperkeratosis of the skin / histology ([3]; HIV-1 transgenic mice): regressed | HIV viral proteins (gp120, Nef) in skin biopsies, immunostaining ([3]; after 2 weeks treatment): marked decrease | HIV viral proteins (gp120, Nef) in skin biopsies, immunostaining ([3]; after 30 days of hCG treatment): no detectable HIV proteins | effective weekly dose ([3]; mice): 300-500 I.U. | reappearance of viral protein expression after treatment was halted ([3]; not shown): 2 weeks | T cell counts and physical symptoms in certain HIV infected subjects [7]: improved T cell counts and physical symptoms | effective weekly dose ([5]; monkeys): 6,000 I.U.

native α-hCG: native α subunit of hCG [reference compound]
inhibition of HIV-1 infection/replication in acutely infected cells [1, 8]: little or no effect | inhibition of HIV-1 infection/replication in acutely infected cells ([1]; p24 antigen days 3 to 10, peptides 0.05 to 50 nmoles/ml, hCG 0.01 to 1,000 IU, native β-hCG 100 to 1,000 μg, listed as native α-chain): inactive | growth retardation and cachexia ([3]; HIV-1 transgenic mice): no effect | HIV-1 gene expression in skin biopsies (RT-PCR) [3]: no effect
